Anti-infective test results gathered from many reports (values: NIAID ChemDB through PubChem).

Shared fields: whole-cell or culture tests; agent: Aspergillus flavus

Conditions beyond the fields shown may differ between rows.

smiles | strain or isolate | setting | tested at | read by | read-out | result
CSc1ccc(C2CC(c3ccccc3Cl)=NN2c2ccccc2)cc1 | NCIM 594 |  | 2000 µg/mL | broth dilution | inhibition | 88.22%
C[C@H]1[C@H](O)[C@@H](C)/C=C/C=C/C=C/C=C/C=C/C=C/C=C/[C@H](O[C@@H]2O[C@H](C)[C@@H](O)[C@H](N)[C@@H]2O)C[C@@H]2O[C@](O)(C[C@@H](O)C[C@@H](O)CC[C@H](O)[C@@H](O)C[C@@H](O)CC(=O)O[C@H]1C)C[C@H](O)[C@H]2C(=O)O | Clinical isolate |  |  | XTT | MFC | 2–4 µg/mL
CN=C1NN(C(=O)Cc2cc(=O)oc3cc(O)ccc23)C(c2c(O)c3ccccc3oc2=O)=CS1 |  |  |  | broth dilution | MIC50 | 0.1 µg/mL
O=c1[nH]c(-c2cc3ccccc3oc2=O)nc2c1C(c1ccccc1Cl)c1ccc3ccccc3c1O2 |  |  | 100 µg/mL | agar diffusion / agar | zone | 12 mm
Clc1ccc(C(c2ccccc2)N2CCN(CCn3ccnc3)CC2)cc1 |  |  |  | broth dilution | MFC | >256 µg/mL
C[C@H]1[C@H](O)[C@@H](C)/C=C/C=C/C=C/C=C/C=C/C=C/C=C/[C@H](O[C@@H]2O[C@H](C)[C@@H](O)[C@H](N)[C@@H]2O)C[C@@H]2O[C@](O)(C[C@@H](O)C[C@@H](O)CC[C@H](O)[C@@H](O)C[C@@H](O)CC(=O)O[C@H]1C)C[C@H](O)[C@H]2C(=O)O | NCIM 519 |  |  | broth dilution / absorbance | MIC99 | 0.78 µM
COC(=O)/C=C/c1ccc(OC)cc1 |  |  |  | broth dilution / resazurin | MIC | 62.5 µg/mL
Nc1ncccc1-c1cc(Cc2ccc(COc3ccccn3)cc2)no1 | IFM50915 | 90% human serum |  | broth dilution | MIC50 | 1 µg/mL
Cc1cc(C)nc(NS(=O)(=O)c2ccc(N=CNn3c(=S)[nH]nc(/C=C/c4cccs4)c3=O)cc2)n1 |  |  |  | agar | MIC90 | 164 µg/mL
CCC1/C=C/C=C/C=C/C=C/C(OC2OC(C)C(O)C(N)C2O)CC2OC(O)(CC(O)CC(O)C/C=C/C(=O)OC1C)CC(O)C2C(=O)O | CGMCC 3.289 |  |  | broth dilution | MIC100 | 3.13 µg/mL
CN(C)c1ccc(C2c3ccc4ccccc4c3Oc3nc(-c4cc5ccccc5oc4=O)[nH]c(=O)c32)cc1 |  |  | 100 µg/mL | agar diffusion / agar | zone | 13 mm
Cc1ccc(-c2n[nH]c(COc3nc(C)nc4ccccc34)n2)cc1 | MTCC 277 |  |  |  | MIC100 | 50 µg/mL
CCN=C1NN(C(=O)c2cc(=O)oc3cc(OCC)ccc23)C(c2c(O)c3ccccc3oc2=O)=CS1 |  |  |  | broth dilution | MIC50 | 1 µg/mL
CC(C)C[C@H](N)C(=O)O | MRCM 24832 |  |  | broth dilution | MFC100 | >18000 µg/mL
Cc1cc(O)c2c(c1)C(=O)c1cc(O)c(O)c(O)c1C2=O |  |  |  | visual reading | MIC100 | 142–284 µM
CCOc1ccc(C2=NN(c3ccccc3)C(c3ccc(SC)cc3)C2)cc1 | NCIM 594 |  | 2000 µg/mL | broth dilution | inhibition | 38.25%
FC(F)(F)c1nc(OCc2nc(-c3ccc(Br)cc3)n[nH]2)c2ccccc2n1 | MTCC 277 |  |  |  | MIC100 | 25 µg/mL
CSc1ccc(C2CC(c3ccc(Br)cc3)=NN2c2ccccc2)cc1 | NCIM 594 |  | 2000 µg/mL | broth dilution | inhibition | 28.2%
CC(C)CC(O)C(=O)O | MRCM 24832 |  |  | broth dilution / visual reading | MFC100 | >72000 µg/mL
COc1ccc(C2c3ccc4ccccc4c3Oc3nc(-c4cc5ccccc5oc4=O)[nH]c(=O)c32)cc1OC |  |  | 150 µg/mL | agar diffusion / agar | zone | 21 mm
CN=C1NN(C(=O)Cc2cc(=O)oc3cc(O)ccc23)C(c2cc3ccccc3oc2=O)=CS1 |  |  |  | broth dilution | MIC50 | 1 µg/mL
Cc1ccc2c(c1)C(C=NNC(=O)N1c3ccccc3C=Cc3ccccc31)C(c1ccccc1)=N2 | MTCC-1973 |  | 750 µg/mL | agar diffusion | zone | 3 mm
c1ccc(C(c2ccccc2)n2ccnc2)cc1 |  |  |  | broth dilution | MFC | 0.5 µg/mL
Oc1ccc(-c2n[nH]c(COc3nc(C(F)(F)F)nc4ccccc34)n2)cc1 | MTCC 277 |  |  |  | MIC100 | 50 µg/mL
CSc1ccc(C2CC(c3cccc([N+](=O)[O-])c3)=NN2c2ccccc2)cc1 | NCIM 594 |  | 2000 µg/mL | broth dilution | inhibition | 18.98%
Cc1ccc2c(c1)C(C1SCC(=O)N1NC(=O)N1c3ccccc3C=Cc3ccccc31)C(c1ccccc1)=N2 | MTCC-1973 |  | 1000 µg/mL | agar diffusion | zone | 6 mm
CC1/C=C/C=C/C=C/C=C/C(O[C@@H]2O[C@H](C)[C@@H](O)[C@H](N)[C@@H]2O)CC2OC(O)(CC(O)CC(O)C/C=C/C(=O)OC1C)CC(O)C2C(=O)O | CGMCC 3.289 |  |  | broth dilution | MIC100 | 6.25 µg/mL
COc1cc(/C=C/C(C)=O)ccc1O | MTCC 277 |  |  | broth dilution | MFC | 1041 µM
COc1cc(C2c3ccc4ccccc4c3Oc3nc(-c4cc5ccccc5oc4=O)[nH]c(=O)c32)ccc1O |  |  | 150 µg/mL | agar diffusion / agar | zone | 16 mm
O=C(c1ccccc1)C(c1ccccc1)n1ccnc1 |  |  |  | broth dilution | MFC | 128 µg/mL
O=c1[nH]c(-c2cc3ccccc3oc2=O)nc2c1C(c1cccc([N+](=O)[O-])c1)c1ccc3ccccc3c1O2 |  |  | 150 µg/mL | agar diffusion / agar | zone | 12 mm
C[C@H]1[C@H](O)[C@@H](C)/C=C/C=C/C=C/C=C/C=C/C=C/C=C/[C@H](O[C@@H]2O[C@H](C)[C@@H](O)[C@H](N)[C@@H]2O)C[C@@H]2O[C@](O)(C[C@@H](O)C[C@@H](O)CC[C@H](O)[C@@H](O)C[C@@H](O)CC(=O)O[C@H]1C)C[C@H](O)[C@H]2C(=O)O |  |  |  | agar | MIC90 | 96 µg/mL
Cc1cc(=O)oc2c(C=Nc3cccc4cccc(N=Cc5c(O)ccc6c(C)cc(=O)oc56)c34)c(O)ccc12 |  |  | 200 µg/mL |  | zone | 18 mm
CCOc1ccc2c(C(=O)N3NC(=NC)SC=C3c3cc4ccccc4oc3=O)cc(=O)oc2c1 |  |  |  | broth dilution | MIC50 | 0.1 µg/mL
CC1CC(c2ccncc2)Nc2ccc(Br)cc21 | ATCC 9170 |  |  |  | MIC100 | >250 µg/mL
CC(C)CC1NC(=O)CC(CCCCCCCCC(C)O)OC(=O)C(CC(C)C)NC(=O)C(CC(C)C)NC(=O)C(CC(C)C)NC(=O)C(C(C)C)NC(=O)C(CC(=O)O)NC(=O)C(CC(C)C)NC1=O | ATCC 11496 |  |  | visual reading | MFC | 16 µg/mL
COc1cc(-c2n[nH]c(COc3ncnc4ccccc34)n2)cc(OC)c1OC | MTCC 277 |  |  |  | MIC100 | 6.25 µg/mL
O=C(c1ccccc1)C(c1ccccc1)n1cnc2ccccc21 |  |  |  | broth dilution | MFC | 128 µg/mL
O=C(NN1C(=O)CSC1C1C(c2ccccc2)=Nc2ccc(Cl)cc21)N1c2ccccc2C=Cc2ccccc21 | MTCC-1973 |  | 500 µg/mL | agar diffusion | zone | 12 mm
Cc1ccc(-c2n[nH]c(COc3nc(C(F)(F)F)nc4ccccc34)n2)cc1 | MTCC 277 |  |  |  | MIC100 | 50 µg/mL
O=C(c1ccccc1)C(c1ccccc1)n1nnc2ccccc21 |  |  |  | broth dilution | MFC | 256 µg/mL

For reference, 6 entries again:

| smiles | strain or isolate | setting | tested at | read by | read-out | result |
|---|---|---|---|---|---|---|
| CN=C1NN(C(=O)Cc2cc(=O)oc3cc(O)ccc23)C(c2c(O)c3ccccc3oc2=O)=CS1 |  |  |  | broth dilution | MIC50 | 0.1 µg/mL |
| Cc1cc(=O)oc2c(C=Nc3cccc4cccc(N=Cc5c(O)ccc6c(C)cc(=O)oc56)c34)c(O)ccc12 |  |  | 200 µg/mL |  | zone | 18 mm |
| Cc1ccc2c(c1)C(C1SCC(=O)N1NC(=O)N1c3ccccc3C=Cc3ccccc31)C(c1ccccc1)=N2 | MTCC-1973 |  | 1000 µg/mL | agar diffusion | zone | 6 mm |
| CCOc1ccc2c(C(=O)N3NC(=NC)SC=C3c3cc4ccccc4oc3=O)cc(=O)oc2c1 |  |  |  | broth dilution | MIC50 | 0.1 µg/mL |
| Cc1ccc2c(c1)C(C=NNC(=O)N1c3ccccc3C=Cc3ccccc31)C(c1ccccc1)=N2 | MTCC-1973 |  | 750 µg/mL | agar diffusion | zone | 3 mm |
| O=C(c1ccccc1)C(c1ccccc1)n1ccnc1 |  |  |  | broth dilution | MFC | 128 µg/mL |

Percent inhibition refers to the dose given; in toxicity tests it is the harm to the cells. Blank or dashed fields: not listed here. a–b is a range or a potency band. Zone: diameter of growth inhibition. A number after MIC or MFC names an inhibition level or a share of isolates.